Results deposited as PubChem BioAssay AID504761 (Drosophila RNAi Screening Center, 2011)

- Test: 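Fly genes whose silencing reduces dengue virus type 2 infection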 (primary screen)
- Cell system: D.Mel-2 cells from Drosophila
- Reagents: long dsRNA against Drosophila genes
- Challenge: infection with dengue virus type 2; dose and infection time not stated
- Detection: 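Cells stained for dengue envelope protein and imaged; percent of infected cells per well on duplicate plates, ranked by infection, with stained nuclei counted for cell number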
- Direction: infection score: higher = more virus-infected cells
- Call rule: 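Low infection ranks in the two replicates (chance level up to 0.065) followed by a retest with a 1.5-fold or larger significant decrease, p below 0.05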
- Calls: active = confirmed: knock-down lowers infection; inactive = not picked or not confirmed
In all, the deposit lists about 22,000 reagents; shown is a random part of those with a known target gene and a result. Of all reagents, 116 (0.52%) were called active. 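Calls depend on retest data that are not deposited; infection was ranked per plate without normalising between plates; the unit of the infection score is not given.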 Names joined by + are all predicted targets of the reagent. Not all columns of the deposit are shown. Not stated in the record: the amount of reagent, the time to read-out.

GatC + PolG2 [DRSC03312]
- infection score, replicate 1: 44
- outcome: inactive

CG10341 [DRSC02040]
- infection score, replicate 1: 16.7
- outcome: inactive

CG15196 [DRSC19643]
- infection score, replicate 1: 1.99
- outcome: inactive

CG15196 [DRSC24591]
- infection score, replicate 1: 0.95
- outcome: inactive

CG16965 [DRSC02547]
- infection score, replicate 1: 4.48
- outcome: inactive

CG15728 [DRSC19694]
- infection score, replicate 1: 2.47
- outcome: inactive

CG15728 [DRSC22868]
- infection score, replicate 1: 3.08
- outcome: inactive

CG15728 [DRSC28662]
- infection score, replicate 1: 17.4
- outcome: inactive

Zip89B (Zinc/iron regulated transporter-related protein 89B) [DRSC16128]
- infection score, replicate 1: 6.84
- outcome: inactive

Zip89B (Zinc/iron regulated transporter-related protein 89B) [DRSC29691]
- infection score, replicate 1: 4.86
- outcome: inactive

Hsp67Ba (Heat shock gene 67Ba) [DRSC11191]
- infection score, replicate 1: 0.43
- outcome: inactive

Hsp67Ba (Heat shock gene 67Ba) [DRSC23678]
- infection score, replicate 1: 1.75
- outcome: inactive

No new results follow: entries from further up.
CG15196 [DRSC19643]
- infection score, replicate 1: 1.99
- outcome: inactive

CG15196 [DRSC24591]
- infection score, replicate 1: 0.95
- outcome: inactive
